Molecular target: SARS-CoV-2 nsp14 MTase (Severe acute respiratory syndrome coronavirus 2, UniProt P0DTD1)
Format: biochemical
Details: enzymatic assay; after introduction of 5-ethynylpyrimidine C-7 substituent

Cc1cc(=O)oc2cc(NC(=O)[C@H]3O[C@@H](n4cc(C#Cc5cncnc5)c5c(N)ncnc54)[C@H](O)[C@@H]3O)ccc12 [18l]
fold enhancement in activity: 10 fold

Cc1cc(=O)[nH]c2cc(NC(=O)[C@H]3O[C@@H](n4cc(C#Cc5cncnc5)c5c(N)ncnc54)[C@H](O)[C@@H]3O)ccc12 [18n]
fold enhancement in activity: 10 fold
